Measured values from several laboratories, pooled; numbers as filed in NIAID ChemDB.

All rows: growth or infection tests; organism: Aspergillus niger

ECn: concentration that inhibits the pathogen or its effect by n%. Blank or dashed fields: not listed here. A number after MIC or MFC names an inhibition level or a share of isolates. Conditions beyond the fields shown may differ between rows. Two numbers with a dash give a range or band.

smiles | read by | endpoint | strain or isolate | value
O=C(Nc1nc2ccccc2[nH]1)c1cn[nH]c1C(=O)c1ccc(Cl)cc1 | broth dilution | MFC |  | 1.25 µg/mL
C[C@H]1[C@H](O)[C@@H](C)/C=C/C=C/C=C/C=C/C=C/C=C/C=C/[C@H](O[C@@H]2O[C@H](C)[C@@H](O)[C@H](N)[C@@H]2O)C[C@@H]2O[C@](O)(C[C@@H](O)C[C@@H](O)CC[C@H](O)[C@@H](O)C[C@@H](O)CC(=O)O[C@H]1C)C[C@H](O)[C@H]2C(=O)O | broth dilution | MIC |  | 1.75 µg/mL
COc1ccc(/C=C2\SC(c3ccc(F)cc3)N(NC(=O)c3ccc(-n4c(-c5ccc(C)cc5)nc5ccccc5c4=O)cc3)C2=O)c(O)c1 |  | MIC100 | MTCC 282 | 1000 µg/mL
Clc1ccc(CO/N=C2\c3ccccc3OCC2n2cncn2)c(Cl)c1 |  | MIC | ATCC 16401 | 2 µg/mL
CC(C)(C)COC(=O)N[C@H](Cc1cn(Cc2ccc([N+](=O)[O-])cc2)nn1)C(=O)OCc1cn(Cc2ccc([N+](=O)[O-])cc2)nn1 |  | MIC | MTCC 281 | 9.2 µM
Fc1ccc(CO/N=C2\c3ccccc3OCC2n2cncn2)cc1 |  | MFC | ATCC 16401 | 16 µg/mL
O=C(CSc1nc2ccccc2[nH]1)c1c([O-])on[n+]1-c1ccc(Cl)cc1 | agar diffusion | EC50 |  | >20 µg/mL
C[C@H]1N(C(=O)c2ccc(C(F)(F)F)cc2)C[C@@H](O)O[C@@]1(Cn1cncn1)c1ccc(F)cc1F |  | MIC | Isolate 2 | >64 µg/mL
Cc1ccc(-[n+]2noc([O-])c2C(=O)CSc2nc3ccccc3[nH]2)cc1C | agar diffusion | EC50 |  | >20 µg/mL
Cc1ccccc1Cn1cc(COC(=O)[C@@H](Cc2cn(Cc3ccccc3C)nn2)NC(=O)OCc2ccccc2)nn1 |  | MIC | MTCC 281 | 9.8 µM
Cc1ccc(C)c(-[n+]2noc([O-])c2C(=O)CSc2nc3ccccc3[nH]2)c1 | agar diffusion | EC50 |  | >20 µg/mL
COc1ccc(C2C(C#N)=C(N)Oc3c2c(C)nn3-c2ccccc2)cc1 |  | MIC | MTCC 282 | 1000 µg/mL
c1ccc(CO/N=C2\c3ccccc3OCC2n2cncn2)cc1 |  | MFC | ATCC 16401 | 16 µg/mL
CC(C)(C)COC(=O)N[C@H](Cc1cn(CCc2ccccc2)nn1)C(=O)OCc1cn(CCc2ccccc2)nn1 |  | MIC | MTCC 281 | 20.2 µM
O=Cc1ccc(OCC(O)(Cn2cncn2)c2ccc(F)cc2F)cc1 | broth dilution | MIC50 | ATCC 16404 | 128 µg/mL
c1ccc(N/N=C2/c3ccccc3OCC2n2cncn2)cc1 | agar | MIC | PTCC 5012 | 16 µg/mL
O=C(N[C@H](Cc1cn(Cc2ccccc2)nn1)C(=O)OCc1cn(Cc2ccccc2)nn1)OCc1ccccc1 |  | MIC | MTCC 281 | 10.3 µM
COc1ccc(-[n+]2noc([O-])c2C(=O)CSc2nc3ccccc3[nH]2)cc1 | agar diffusion | EC50 |  | >20 µg/mL
CC(C)(C)COC(=O)N[C@H](Cc1cn(Cc2cccc([N+](=O)[O-])c2)nn1)C(=O)OCc1cn(Cc2cccc([N+](=O)[O-])c2)nn1 |  | MIC | MTCC 281 | 9.2 µM
Cc1nn(-c2ccccc2)c2c1C(c1cccc(Br)c1)c1c(nc(=O)[nH]c1N)O2 |  | MIC | MTCC 282 | 1000 µg/mL
Cc1cccc(Cn2cc(COC(=O)[C@@H](Cc3cn(Cc4cccc(C)c4)nn3)NC(=O)OCc3ccccc3)nn2)c1 |  | MIC | MTCC 281 | 9.8 µM
CC1(O)OC(=O)C(c2ccc(OCC(O)(Cn3cncn3)c3ccc(F)cc3F)cc2)=C1c1ccc(F)cc1F | broth dilution | MIC50 | ATCC 16404 | 16 µg/mL
Cc1ccc(-c2nc3ccccc3c(=O)n2-c2ccc(C(=O)N/N=C\c3ccc(F)cc3)cc2)cc1 |  | MIC100 | MTCC 282 | 500 µg/mL
O=C(N[C@H](Cc1cn(Cc2cccc([N+](=O)[O-])c2)nn1)C(=O)OCc1cn(Cc2cccc([N+](=O)[O-])c2)nn1)OCc1ccccc1 |  | MIC | MTCC 281 | 8.9 µM
Cc1ccc(-c2nc3ccccc3c(=O)n2-c2ccc(C(=O)NN3C(=O)/C(=C/c4ccccc4Br)SC3c3ccc(F)cc3)cc2)cc1 |  | MIC100 | MTCC 282 | 1000 µg/mL
CC1/C=C/C=C/C=C/C=C/C(O[C@@H]2O[C@H](C)[C@@H](O)[C@H](N)[C@@H]2O)CC2OC(O)(CC(O)CC(O)C(O)/C=C/C(=O)OC1C)CC(O)C2C(=O)O | broth dilution | MIC100 | CGMCC 3.6478 | 22.5 µg/mL
O=C(CSc1nc2ccccc2[nH]1)c1c([O-])on[n+]1-c1ccc(Br)cc1 | agar diffusion | EC50 |  | >20 µg/mL
CCC1/C=C/C=C/C=C/C=C/C(OC2OC(C)C(O)C(N)C2O)CC2OC(O)(CC(O)CC(O)C(O)/C=C/C(=O)OC1C)CC(O)C2C(=O)O | broth dilution | MIC | CGMCC 3.6478 | 5.63 µg/mL
COc1cc(/C=C2\SC(c3ccc(F)cc3)N(NC(=O)c3ccc(-n4c(-c5ccc(C)cc5)nc5ccccc5c4=O)cc3)C2=O)cc(OC)c1OC |  | MIC100 | MTCC 282 | 500 µg/mL
Clc1ccc(CO/N=C2/c3ccc(Cl)cc3OCC2n2cncn2)cc1 |  | MFC | ATCC 16401 | 64 µg/mL
Cc1ccc(-c2nc3ccccc3c(=O)n2-c2ccc(C(=O)NN3C(=O)/C(=C/c4ccc(N(C)C)cc4)SC3c3ccc(F)cc3)cc2)cc1 |  | MIC100 | MTCC 282 | 1000 µg/mL
Brc1ccc(CO/N=C2/c3ccccc3OCC2n2cncn2)cc1 |  | MIC | ATCC 16401 | 16 µg/mL
Cc1nn(-c2ccccc2)c2c1C(c1cccc([N+](=O)[O-])c1)C(C#N)=C(N)O2 |  | MIC | MTCC 282 | 1000 µg/mL
C[C@H]1[C@H](O)[C@@H](C)/C=C/C=C/C=C/C=C/C=C/C=C/C=C/[C@H](O[C@@H]2O[C@H](C)[C@@H](O)[C@H](N)[C@@H]2O)C[C@@H]2O[C@](O)(C[C@@H](O)C[C@@H](O)CC[C@H](O)[C@@H](O)C[C@@H](O)CC(=O)O[C@H]1C)C[C@H](O)[C@H]2C(=O)O | agar diffusion | MIC | As2 | 36 µg/mL
CCC(C)CC(C)CCCCCCCCC(=O)N[C@H]1C[C@@H](O)[C@H](NCCN)NC(=O)[C@@H]2[C@@H](O)CCN2C(=O)[C@H]([C@H](O)CCN)NC(=O)[C@H]([C@H](O)[C@@H](O)c2ccc(O)cc2)NC(=O)[C@@H]2C[C@@H](O)CN2C(=O)[C@H]([C@@H](C)O)NC1=O | broth dilution | MIC | ATCC 16404 | 64 µg/mL
COc1cc(C=O)cc(OC)c1OCC(O)(Cn1cncn1)c1ccc(F)cc1F | broth dilution | MIC50 | ATCC 16404 | 128 µg/mL
Cc1nn(-c2ccccc2)c2c1C(c1cccc(Cl)c1)c1c(nc(=S)[nH]c1N)O2 |  | MIC | MTCC 282 | 1000 µg/mL
COc1ccccc1/C=C1\SC(c2ccc(F)cc2)N(NC(=O)c2ccc(-n3c(-c4ccc(C)cc4)nc4ccccc4c3=O)cc2)C1=O |  | MIC100 | MTCC 282 | 1000 µg/mL
Cc1nn(-c2ccccc2)c2c1C(c1ccc(F)cc1)C(C#N)=C(N)O2 |  | MIC | MTCC 282 | 500 µg/mL
Clc1cccc(Cl)c1CO/N=C1/c2ccccc2OCC1n1cncn1 |  | MFC | ATCC 16401 | >64 µg/mL
O=C(CSc1nc2ccccc2[nH]1)c1c([O-])on[n+]1-c1cccc(Cl)c1 | agar diffusion | EC50 |  | >20 µg/mL
CC1Oc2ccccc2/C(=N/Nc2ccccc2)C1n1ccnc1 | agar | MIC | PTCC 5012 | 16 µg/mL
Cc1ccc(-c2nc3ccccc3c(=O)n2-c2ccc(C(=O)NN3C(=O)/C(=C/c4ccc(F)cc4)SC3c3ccc(F)cc3)cc2)cc1 |  | MIC100 | MTCC 282 | 50 µg/mL
COc1ccc(Cc2cn(Cc3ccc(O)cc3)c(/N=C3/NC(=O)NC3=O)n2)cc1 |  | MIC | ATCC 9642 | ≥100 µg/mL
O=C(N[C@H](Cc1cn(Cc2ccccc2[N+](=O)[O-])nn1)C(=O)OCc1cn(Cc2ccccc2[N+](=O)[O-])nn1)OCc1ccccc1 |  | MIC | MTCC 281 | 8.9 µM
O=C1OCC(c2ccccc2)=C1c1ccc(OCC(O)(Cn2cncn2)c2ccc(F)cc2F)cc1 | broth dilution | MIC50 | ATCC 16404 | 4 µg/mL
Clc1ccc2c(c1)OCC(n1cncn1)/C2=N\OCc1ccc(Cl)c(Cl)c1 |  | MIC | ATCC 16401 | 32 µg/mL
COc1cc(C2=C(c3ccc(F)cc3)COC2=O)ccc1OCC(O)(Cn1cncn1)c1ccc(F)cc1F | broth dilution | MIC50 | ATCC 16404 | 8 µg/mL
C[C@H]1[C@H](O)[C@@H](C)/C=C/C=C/C=C/C=C/C=C/C=C/C=C/[C@H](O[C@@H]2O[C@H](C)[C@@H](O)[C@H](N)[C@@H]2O)C[C@@H]2O[C@](O)(C[C@@H](O)C[C@@H](O)CC[C@H](O)[C@@H](O)C[C@@H](O)CC(=O)O[C@H]1C)C[C@H](O)[C@H]2C(=O)O | broth dilution | MIC | ATCC 16404 | 1–2 µg/mL

The last 4 rows once more:

O=C1OCC(c2ccccc2)=C1c1ccc(OCC(O)(Cn2cncn2)c2ccc(F)cc2F)cc1 ; read by: broth dilution ; endpoint: MIC50 ; strain or isolate: ATCC 16404 ; value: 4 µg/mL
Clc1ccc2c(c1)OCC(n1cncn1)/C2=N\OCc1ccc(Cl)c(Cl)c1 ; endpoint: MIC ; strain or isolate: ATCC 16401 ; value: 32 µg/mL
COc1cc(C2=C(c3ccc(F)cc3)COC2=O)ccc1OCC(O)(Cn1cncn1)c1ccc(F)cc1F ; read by: broth dilution ; endpoint: MIC50 ; strain or isolate: ATCC 16404 ; value: 8 µg/mL
C[C@H]1[C@H](O)[C@@H](C)/C=C/C=C/C=C/C=C/C=C/C=C/C=C/[C@H](O[C@@H]2O[C@H](C)[C@@H](O)[C@H](N)[C@@H]2O)C[C@@H]2O[C@](O)(C[C@@H](O)C[C@@H](O)CC[C@H](O)[C@@H](O)C[C@@H](O)CC(=O)O[C@H]1C)C[C@H](O)[C@H]2C(=O)O ; read by: broth dilution ; endpoint: MIC ; strain or isolate: ATCC 16404 ; value: 1–2 µg/mL